## Percent effect of library compounds

Measurements from “University of Dundee, Small-Polar-MMV Screening Library” (2021), ChEMBL document CHEMBL3988442.

A: 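Growth of Mycobacterium tuberculosis over 3 days (7H9 medium with glucose and tyloxapol); the read-out is not stated. Compounds at 500 µM. Higher reads as more growth inhibition (inferred: compounds with an IC50 in retests scored well above the rest). Of about 18,000 compounds tested this way, about 1,400 (7.9%) reached 50% or more in at least one test.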
B: 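Phenotypic screen: M. tuberculosis growth, cholesterol and DPPC medium, 4 days; the read-out is not stated. Tested at 500 µM. Direction is inferred from retests: higher values go with more growth inhibition. About 18,000 compounds were tested under these conditions; 5% (about 900) showed 50% or more at least once.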

The filed quantity is “Percent Effect” (%).
The controls that fix the scale are not given in the record; negative values are as filed.
Many other results are left out here, so strong results are more common than in the screen.

- Cc1ccc(CN2CCC(CNS(N)(=O)=O)CC2)cc1 : A: 8.899%
- O=C(NCCCN1Cc2ccccc2C1)C1CCC1 : A: 27.27%
- FC(F)OC1CCCNC1 (configuration not stated) : B: -11.83%
- Cc1ccc(C(C)NC(=O)c2cnccn2)o1 (configuration not stated) : A: 4.074%
- CC[C@H]1COCCN1C(=O)CCCn1cccn1 : A: -4.731%
- NC(=O)CSc1nc(-c2ccc(Br)cc2)c[nH]1 : A: 87.97%; B: 109.9%
- Cn1c(=O)n(C)c2cc(CNCCOCCO)ccc21 : B: 16.91%
- CC(C)(C)CNC(=O)Cc1csc(N2CCCC2=O)n1 : A: 0.8532%
- OCc1nc(N2CCSCC2)c2ccccc2n1 : B: 0.2235%
- O=C(COC(=O)C1=COCCO1)Nc1ccc(I)cc1 : A: 5.887%
- Cc1cccnc1NC1=NS(=O)(=O)c2ccccc21 : B: -0.7363%
- COCC1CN(c2ccccn2)CCO1 (configuration not stated) : B: 6.145%
- O=C1CN(CC(=O)N2CCCCCC2)CCN1 : A: -11.39%
- COCCN1CCN(Cc2cccnc2C)CC1=O : B: -2.851%
- c1snnc1CN1CCOCC2(CCOCC2)C1 : A: 4.781%
- COc1cc(CN)cc(Cl)c1OC : A: 7.281%
- CC1COCCN1C(=O)Cc1cccc2cccnc12 (configuration not stated) : B: 16.87%
- COc1cccc(CCN)n1 : A: 74.52%; B: 53.42%
- CCN1CC(C(=O)NCCCc2cnn(C)c2)CC1=O (configuration not stated) : B: -4.797%
- OCCNCCNCc1ccc(-c2ccccc2Cl)o1 : A: 92.56%; B: 93.99%
- CCOc1ncccc1NC(=O)c1[nH]ncc1Br : A: -13.1%; B: -6.931%
- CCC(=O)N[C@H]1CCCNC1 : B: -1.736%
- NC(=O)NC(=O)CCS(=O)(=O)c1cc(F)ccc1F : A: 103.6%; B: 112.1%
- Cc1c[nH]c2ccccc2c1=N : B: -41.67%
- Cc1nc(CN2CCN(CC3(O)CCNC3)CC2)cs1 (configuration not stated) : B: -15.2%
- CNCc1nc(C(F)(F)F)no1 : A: 54.64%

The last 3 entries again:

- Cc1c[nH]c2ccccc2c1=N : B: -41.67%
- Cc1nc(CN2CCN(CC3(O)CCNC3)CC2)cs1 (configuration not stated) : B: -15.2%
- CNCc1nc(C(F)(F)F)no1 : A: 54.64%